Values from PubChem BioAssay AID504761 (Drosophila RNAi Screening Center, 2011).
In all, the deposit lists about 22,000 reagents; this is an unselected part of those that have a named target and a result. Of all reagents, 116 (0.52%) are marked active. 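Calls depend on retest data that are not deposited; infection was ranked per plate without normalising between plates; the unit of the infection score is not given.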 Raw values are not corrected between plates. Unmarked entries are inactive. A plus sign joins genes that one reagent is predicted to hit. Not given: the amount of reagent, the time to read-out.

Test: 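Insect host genes that dengue virus relies on to spread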 (primary screen)
Cell system: D.Mel-2 cells from Drosophila
Reagents: long dsRNA against Drosophila genes
Treatment: infection with dengue virus type 2; dose and infection time not stated
Detection: 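Cells stained for dengue envelope protein and imaged; percent of infected cells per well on duplicate plates, ranked by infection, with stained nuclei counted for cell number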
Direction: infection score: higher = more virus-infected cells; cell count: higher = more cells in the well
Active means: 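Low infection ranks in the two replicates (chance level up to 0.065) followed by a retest with a 1.5-fold or larger significant decrease, p below 0.05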
Calls: active = confirmed: knock-down lowers infection; inactive = not picked or not confirmed

Target gene | amplicon | infection score, replicate 1 | infection score, replicate 2 | cell count, replicate 1 | cell count, replicate 2
Set8 (SET domain containing 8) | DRSC15473 | 20.8 | 25.8 | 5292 | 4648
Set8 (SET domain containing 8) | DRSC27118 | 14.1 | 11.8 | 5386 | 5852
CG31913 | DRSC00892 | 0.96 | – | 5734 | –
CG31913 | DRSC27532 | 7.4 | 7.5 | 6770 | 6602
lqf (liquid facets) | DRSC11363 | 1.4 (active) | 1.85 | 5702 | 5882
lqf (liquid facets) | DRSC27882 | 13.7 | 2.43 | 3986 | 5605
Prp5 (pre-mRNA processing factor 5) | DRSC19975 | 7.27 | 2.78 | 6133 | 6511
Prp5 (pre-mRNA processing factor 5) | DRSC27434 | 19.4 | 13.7 | 6354 | 6031
CG43338 | DRSC23362 | 1.39 | 3.41 | 6891 | 7145
CG42586 + CG31775 | DRSC01413 | 4.16 | 6.02 | 5547 | 5880
CG34355 | DRSC13639 | 1.08 | 6.41 | 6790 | 7048
CG34355 | DRSC14520 | 0.78 | 4.63 | 6302 | 6282
CG34355 | DRSC14668 | 1.93 | 0.52 | 6481 | 6323
CG34355 | DRSC21687 | 3.34 | 4.83 | 5336 | 5626
CG14834 | DRSC10204 | 2.28 | 2.14 | 6498 | 6544
CG14834 | DRSC28202 | 6.75 | 13.9 | 2371 | 4164
Gpdh3 (Glycerol-3-phosphate dehydrogenase 3) | DRSC13561 | 4.39 | 3.3 | 6240 | 5729
Gpdh3 (Glycerol-3-phosphate dehydrogenase 3) | DRSC15325 | 4.19 | 0.88 | 6131 | 7191
CG8060 | DRSC07064 | 5.39 | 9.77 | 6552 | 5896
CG11373 | DRSC12170 | 1.98 | 1.8 | 6617 | 6560
RIOK1 (RIO kinase 1) | DRSC09853 | 5.49 | 5.09 | 6378 | 6713
Rab9Db + Rab9D + Rab9Fa + 1 more | DRSC17662 | 6.13 | 5.09 | 6203 | 6253
nmdyn-D7 | DRSC17016 | 1.33 | 0.9 | 6242 | 5973
mRF1 (mitochondrial translation release factor 1) | DRSC02880 | 8.05 | 5.31 | 6164 | 6383
mRF1 (mitochondrial translation release factor 1) | DRSC29576 | 13.3 | 0.99 | 2616 | 507
ND-ACP | DRSC08724 | 2.7 | 2.81 | 6382 | 5475

Hits, among the entries above:
Target gene | amplicon | infection score, replicate 1 | infection score, replicate 2 | cell count, replicate 1 | cell count, replicate 2
lqf (liquid facets) | DRSC11363 | 1.4 (active) | 1.85 | 5702 | 5882

Further records:
Target gene | amplicon | infection score, replicate 1 | infection score, replicate 2 | cell count, replicate 1 | cell count, replicate 2
Yp1 (Yolk protein 1) | DRSC18731 | 0.42 | 0.91 | 6423 | 6620
Yp1 (Yolk protein 1) | DRSC27876 | 6.14 | 17.4 | 6887 | 5704
ytr (yantar) | DRSC04306 | 10.7 | 12 | 6821 | 6232
ytr (yantar) | DRSC22073 | 2.17 | 11.9 | 6630 | 6009
ytr (yantar) | DRSC25408 | 0.72 | 4.74 | 6215 | 5925
Spn42Dd (Serpin 42Dd) | DRSC05024 | 16.1 | – | 6234 | 377
Spn42Dd (Serpin 42Dd) | DRSC22060 | 6.09 | 5.13 | 6202 | 6294
CG13048 | DRSC09929 | 1.08 | 1.59 | 6139 | 6279
CG13048 | DRSC26938 | 11.4 | 3.73 | 5808 | 5899
LysD + LysC (retired record) | DRSC08674 | 1.99 | 6.84 | 5887 | 5647
LysD + LysC (retired record) | DRSC22743 | 6.98 | 11.8 | 6164 | 6379
tal-1A + tal-2A + tal-AA + 1 more | DRSC12992 | 2.33 | 0.41 | 6213 | 6143
CG1138 | DRSC12530 | 8.65 | 25.4 | 6972 | 5959
Act5C (Actin 5C) | DRSC17723 | 9.41 | 4.69 | 4752 | 4604
Act5C (Actin 5C) | DRSC25024 | 6.08 | 14.8 | 5563 | 5555
CG13962 | DRSC02304 | 11.3 | 2.83 | 5940 | 6331
CG13962 | DRSC30042 | 28.4 | 35.5 | 6175 | 6443
CG4467 | DRSC15585 | 13.2 | 0.52 | 6189 | 6597
PEK (pancreatic eIF-2alpha kinase) | DRSC12361 | 2.88 | 5.39 | 6774 | 6349
CR11023 (pseudo) | DRSC00302 | 11.2 | 7.6 | 6659 | 6935
CR11023 (pseudo) | DRSC28266 | 16.6 | 18.6 | 5217 | 4794
snu (snustorr) | DRSC16589 | 2.86 | 2.53 | 5172 | 5888
Uba4 (Ubiquitin-like activating enzyme 4) | DRSC02194 | 5.82 | 13.1 | 6616 | 6026
Uba4 (Ubiquitin-like activating enzyme 4) | DRSC27964 | 22.9 | 4.25 | 5636 | 6563
ken (ken and barbie) | DRSC23196 | 3.47 | 7.56 | 6476 | 7041
CG31055 | DRSC13832 | 7.66 | 4.86 | 5664 | 5062
CG9447 | DRSC05008 | 8.22 | 4.71 | 3323 | 1592
Ama (Amalgam) | DRSC12489 | 13.1 | 17 | 5393 | 5433
Or65b (Odorant receptor 65b) | DRSC08809 | 3.17 | 2.13 | 5968 | 5723
CG13243 | DRSC01920 | 4.45 | 1.04 | 6275 | 6434
Ate1 (Arginyltransferase 1) | DRSC05925 | 6.89 | 13.8 | 3105 | 4826
Ate1 (Arginyltransferase 1) | DRSC24725 | 3.83 | 8.67 | 6523 | 6248
CG14693 | DRSC14916 | 8.39 | 2.43 | 5935 | 6214
CG1946 | DRSC06804 | 33.2 | 12.8 | 5046 | 4633
CG1946 | DRSC28499 | 17.8 | 13.4 | 5755 | 4117
CG4328 | DRSC23146 | 0.79 | 2.24 | 6844 | 6837
CG4328 | DRSC28606 | 18.6 | 13.8 | 4415 | 3309
Ciz1 (Ciz1 zinc finger protein) | DRSC09675 | 2.16 | 4.32 | 5461 | 5481
Ciz1 (Ciz1 zinc finger protein) | DRSC25065 | 5.5 | 11.9 | 5835 | 5531
CG10910 | DRSC06007 | 0.28 | 32.2 | 353 | 6550
CG10910 | DRSC29305 | 8.83 | – | 1994 | 339
Crg-1 (Circadianly Regulated Gene) | DRSC22882 | 1.26 | 0.44 | 6420 | 6524
Crg-1 (Circadianly Regulated Gene) | DRSC29136 | 0.25 | – | 395 | 264
lncRNA:CR41601 (long non-coding RNA:CR41601) | DRSC22158 | 8.95 | 3.56 | 5964 | 6383
CG7786 | DRSC07045 | 12.3 | 8.54 | 3492 | 6849
CG7786 | DRSC26604 | 1.7 | 1.96 | 6588 | 6186
CG10907 | DRSC09804 | 0.69 | 2.57 | 6092 | 6035
Kr-h2 (Kruppel homolog 2) | DRSC03356 | 4.08 | 2.14 | 5987 | 6267
